Results deposited as PubChem BioAssay AID1259414 (Drosophila RNAi Screening Center, 2018).
In all, the deposit lists about 24,000 reagents; shown is an unselected part of those that have a named target and a result. Of all reagents, about 1,210 (5%) were called active. 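Inactive calls also include excluded dsRNAs with several or no targets, genes unexpressed in JW18, and well A1, regardless of score.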 Names joined by + are all predicted targets of the reagent.

Assay: 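Host factors increasing or decreasing Wolbachia levels in cultured fly cells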 (primary screen)
Cell system: Drosophila JW18 cells infected with Wolbachia
Knock-down reagent: long dsRNA against Drosophila genes, 0.25 µg dsRNA per well of a 384-well plate
Duration: 5 days
Conditions: cells persistently infected with Wolbachia before knock-down; no added drug
Measured: 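Imaged fluorescence in situ signal for Wolbachia 23S rRNA per DAPI-counted host cell, given as a robust z-score within each plate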
Reading the numbers: Wolbachia per cell robust z: higher = more Wolbachia per host cell than the plate typical
Active means: 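Active if absolute robust z reaches 1.5 in two or more of three replicates, leaving out multi- or no-target dsRNAs, genes unexpressed in JW18 and A1 wells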

Target gene	PubChem SID	Wolbachia per cell robust z, rep 1	Wolbachia per cell robust z, rep 2	Wolbachia per cell robust z, rep 3	outcome
TpnC41C (Troponin C at 41C)	SID104184708	-1.79	0.352	-0.221	inactive
CG12219	SID104197621	0.529	-0.0543	0.398	inactive
CG12219	SID104203343	-0.0695	-0.548	-0.179	inactive
RpS8 (Ribosomal protein S8)	SID104196110	2.33	1.51	1.32	active
Gpdh3 (Glycerol-3-phosphate dehydrogenase 3)	SID104195117	-3.75	-5.01	-1.05	active
CG15450	SID104200314	0.0556	0.364	-2.27	inactive
CG32284	SID104187817	-0.617	0.863	1.08	inactive
CG15117	SID104186331	-0.198	0.295	-1.74	inactive
CG15117	SID104204017	0.273	0.547	0.243	inactive
CG34432	SID104216253	0.521	-0.221	-0.482	inactive
NC2beta (Negative Cofactor 2beta)	SID104181687	-0.226	-0.811	-3.36	inactive
NC2beta (Negative Cofactor 2beta)	SID104203892	-1.4	1.26	-0.139	inactive
js (jiangshi)	SID104194796	-0.0332	0.179	-0.301	inactive
beag	SID104195088	0.428	0.585	0.61	inactive
CG17928	SID104182436	-0.349	-0.0597	-4.09	inactive
Burs (Bursicon)	SID104194387	0.761	0.188	1.01	inactive
Glut4EF (Glucose transporter 4 enhancer factor)	SID104194304	-1.85	-0.688	-1.01	inactive
Glut4EF (Glucose transporter 4 enhancer factor)	SID104194333	-0.398	-0.497	-0.401	inactive
Glut4EF (Glucose transporter 4 enhancer factor)	SID104194334	-1.56	-0.435	-0.595	inactive
Glut4EF (Glucose transporter 4 enhancer factor)	SID104194335	-0.559	-1.31	0.243	inactive
Glut4EF (Glucose transporter 4 enhancer factor)	SID104202395	-3.11	-0.353	-4.2	active
Glut4EF (Glucose transporter 4 enhancer factor)	SID104207168	-0.713	1.2	0.726	inactive
Glut4EF (Glucose transporter 4 enhancer factor)	SID104207772	-5.09	-0.0199	-1.5	inactive
Glut4EF (Glucose transporter 4 enhancer factor)	SID104214122	-0.242	0.0359	-0.0461	inactive
Glut4EF (Glucose transporter 4 enhancer factor)	SID104214123	-0.842	-2.9	-1.21	inactive
Glut4EF (Glucose transporter 4 enhancer factor)	SID104214124	-0.247	0.609	-0.169	inactive
Glut4EF (Glucose transporter 4 enhancer factor)	SID104214125	-0.505	0.868	-0.7	inactive

The list goes on; the last 4 above are carried over.
Target gene	PubChem SID	Wolbachia per cell robust z, rep 1	Wolbachia per cell robust z, rep 2	Wolbachia per cell robust z, rep 3	outcome
Glut4EF (Glucose transporter 4 enhancer factor)	SID104214122	-0.242	0.0359	-0.0461	inactive
Glut4EF (Glucose transporter 4 enhancer factor)	SID104214123	-0.842	-2.9	-1.21	inactive
Glut4EF (Glucose transporter 4 enhancer factor)	SID104214124	-0.247	0.609	-0.169	inactive
Glut4EF (Glucose transporter 4 enhancer factor)	SID104214125	-0.505	0.868	-0.7	inactive
arx (asterix)	SID104190178	0.711	-5.95	0.14	inactive
CG33269	SID104190377	-0.552	-0.857	-0.122	inactive
CG31523	SID104191801	-0.591	-0.104	-0.422	inactive
CG31523	SID104192129	0.0157	0.147	-0.0304	inactive
CG31523	SID104205797	1.23	0.339	0.185	inactive
CG12914	SID104186021	-0.833	-4.82	-0.0258	inactive
CG10584	SID104191416	-1.27	0.753	-0.835	inactive
Cyp303a1 (Cytochrome P450 303a1)	SID104183092	1.13	0.223	-0.00937	inactive
CG11309	SID104191442	-2.08	-0.628	-1.7	inactive
CG11309	SID104206670	0.47	-2.33	-0.578	inactive
CG14589	SID104184658	0.547	0.534	-4.61	inactive
CG15237	SID104184763	-0.839	-1.09	-0.00326	inactive
Mur18B (Mucin related 18B)	SID104199855	0.173	-0.124	-0.0209	inactive
Mur18B (Mucin related 18B)	SID104207154	-1.65	-0.15	-0.929	inactive
Mur18B (Mucin related 18B)	SID104216578	1.12	1.31	0.293	inactive
CG10365	SID104194026	0.282	-0.0455	-0.242	inactive
toy (twin of eyeless)	SID104197014	-0.878	0.0738	0.0184	inactive
toy (twin of eyeless)	SID104204414	-1.89	-0.392	-0.928	inactive
toy (twin of eyeless)	SID104218272	0.37	1.41	0.572	inactive
pdgy (pudgy)	SID104198856	-8.21	-0.381	-0.391	inactive
pdgy (pudgy)	SID104199133	-4.01	-0.916	1.54	inactive
SppL (Signal peptide peptidase-like)	SID104195020	-5.1	0.361	0.043	inactive
Lapsyn (Leucine-rich repeat activity-regulated protein at synapses)	SID104184041	0.35	-3.59	-0.0598	inactive
Cad96Cb (Cadherin 96Cb)	SID104194035	0.0792	-0.183	0.876	inactive
Cad96Cb (Cadherin 96Cb)	SID104194457	0.0916	-1.88	0.458	inactive
Cad96Cb (Cadherin 96Cb)	SID104207264	-0.147	0.531	0.941	inactive
CG4615	SID104197283	0.655	-0.735	0.236	inactive
CG4615	SID104198168	-2.38	1.93	0.154	inactive
CG4615	SID104205266	-2.19	-0.671	-0.779	inactive
CG15892 + CG15891	SID104197887	-0.521	-0.171	-0.0788	inactive
CG15892 + CG15891	SID104197888	-0.456	0.215	0.17	inactive
CG34370	SID104183705	0.575	0.278	1.14	inactive
CG34370	SID104183934	0.775	-1.93	0.733	inactive
CG34370	SID104183935	-0.882	-0.242	-1.1	inactive
CG34370	SID104183936	0.546	-1.13	-1.01	inactive
CG34370	SID104204807	0.0738	-1.01	0.0245	inactive
CG34370	SID104215336	-0.364	-1.42	-1.24	inactive
ImpE3 (Ecdysone-inducible gene E3)	SID104196508	0.262	-1.3	-1.25	inactive
CG13992	SID104182116	0.199	0.131	0.44	inactive
en (engrailed)	SID104187401	0.27	-2.83	0.486	inactive
en (engrailed)	SID104204172	0.326	-3.16	-1.68	inactive
